Test results taken from PMC6168691, “The amino‐terminal domain of Mycobacterium tuberculosis ClpB protein plays a crucial role in its substrate disaggregation activity” (FEBS Open Bio, 2018).

What was measured:
κ-casein = test: cell-based or functional assay
[1] = biological target: recombinant firefly luciferase (firefly); test: cell-based or functional assay
[2] = biological target: malate dehydrogenase from pig heart (pig); test: cell-based or functional assay
[3] = biological target: Mycobacterium tuberculosis DnaK (Mycobacterium tuberculosis); test: cell-based or functional assay
[4] = biological target: recombinant firefly luciferase (firefly); test: cell-based or functional assay; remark: listed apart in the source
[5] = biological target: the molecule itself; test: SEC; Superdex-200, buffer A; protein 0.2 mg/mL incubated with 5 mM ADP for 10 min at room temperature before loading
[6] = biological target: the molecule itself; test: SEC; Superdex-200 (1 × 60 cm), buffer A (50 mM Tris/HCl pH 7.5, 100 mM KCl, 10% glycerol, 1 mM EDTA, 1 mM DTT); protein loaded at 0.2 mg/mL, no nucleotide

| Binder | stimulation of the ATPase activity of ClpB by κ‐casein (0.2 mg·mL^−1) (κ-casein) [fold] | prevention of heat aggregation of 0.3 μM luciferase at 43 °C (turbidity at 320 nm), 0.25 μM to 8-fold more ClpB, 5 mM ATP; luciferase kept unaggregated [1] [%] | reactivation of large aggregates of MDH by ClpB against ClpB∆N [2] [fold] | ATPase activity of ClpB with 1 μM DnaK against ClpB alone [3] [fold] | reactivation of large aggregates of luciferase (heat-aggregated 15 min) with KJE; luminescence, in parenthesis percent of WT ClpB [4] [RLU s^−1] | reactivation of large aggregates of luciferase (heat-aggregated 15 min) without KJE; luminescence, in parenthesis percent of WT ClpB [4] [RLU s^−1] | reactivation of small aggregates of luciferase (heat-aggregated 5 min) with KJE; luminescence, in parenthesis percent of WT ClpB [4] [RLU s^−1] | reactivation of small aggregates of luciferase (heat-aggregated 5 min) without KJE; luminescence, in parenthesis percent of WT ClpB [4] [RLU s^−1] | stoichiometry N [5] | stoichiometry N [6] |
| --- | --- | --- | --- | --- | --- | --- | --- | --- | --- | --- |
| Mycobacterium tuberculosis ClpB, full length ([…]) (natural protein, also called Mtb ClpB; WT ClpB) not shown | > 3 | ~95 | ~2 | 2 | 170000 | 82000 | 460000 | 400000 | 4 | 6 and 2 |
| Mycobacterium tuberculosis ClpB L97D (natural protein) not shown | – | – | – | – | 70000 | 36000 | 390000 | 180000 | – | – |
| Mycobacterium tuberculosis ClpB L101Q (natural protein) not shown | – | – | – | – | 80000 | 30000 | 490000 | 250000 | – | – |
| Mycobacterium tuberculosis ClpB F140T (natural protein) not shown | – | – | – | – | 90000 | 37000 | 600000 | 280000 | – | – |
| Mycobacterium tuberculosis ClpB V141K (natural protein) not shown | – | – | – | – | 140000 | 51000 | 430000 | 280000 | – | – |

Values joined by “and” are separate entries in the source; they are usually repeats but may differ in a detail not shown here. Identical values can stand only once.
